Measured values from several laboratories, pooled; numbers as filed in NIAID ChemDB.

Shared fields: whole-cell or culture tests; species: Cryptococcus neoformans

Zones are inhibition diameters on agar.

compound	endpoint	dose	strain or isolate	read by	result
CC(C)CC1NC(=O)CC(CCCCCCCCC(C)O)OC(=O)C(CC(C)C)NC(=O)C(CC(C)C)NC(=O)C(CC(C)C)NC(=O)C(C(C)C)NC(=O)C(CC(=O)O)NC(=O)C(CC(C)C)NC1=O	MFC		MTCC 4406	visual reading	4 µg/mL
OC(CN1CCN(c2ccc(OCc3ccncc3)cc2)CC1)(Cn1cncn1)c1ccc(F)cc1F	MIC80		201309		1 µg/mL
CCOC(=O)c1c(C)nc(NCCCCNc2ccnc3cc(Cl)ccc23)nc1-c1ccccc1	MIC99		96806		45.3 µg/mL
CC(C)(C)OC(=O)N1CCC(n2cc(-c3noc(=O)[nH]3)nn2)CC1	inhibition	200 µg/mL	NCIM576	agar	0%
CCC(C)n1ncn(-c2ccc(N3CCN(c4ccc(OC[C@H]5CO[C@](Cn6cncn6)(c6ccc(Cl)cc6Cl)O5)cc4)CC3)cc2)c1=O	MIC50			broth dilution	0.13 µg/mL
CC(C)C(N)CCC(C)C1CC[C@@]2(C)C3=C(CCC12C)C1(C)CC[C@H](O)C(C)(C)C1CC3	MIC90		IFM.40092		0.1 µg/mL
CCOC(=O)c1c(C)nc(NCCCCNc2ccnc3cc(Cl)ccc23)nc1-c1ccccc1[N+](=O)[O-]	MIC99		WP		8 µg/mL
O=C(CC1=Nc2ccccc2C1)OC1CCN(CC(O)(Cn2cncn2)c2ccc(F)cc2F)CC1	MIC80		BLS108	broth dilution	2.019 µM
CN[C@H]1CC[C@@H](c2ccc(Cl)c(Cl)c2)c2ccccc21	MIC90		C23	broth dilution	5 µg/mL
CCCCCCCCCCC(=O)OC1CCN(CC(O)(Cn2cncn2)c2ccc(F)cc2F)CC1	MIC80		BLS108	broth dilution	0.508 µM
O=c1[nH]c(-c2cn(C3CCNCC3)nn2)no1	inhibition	200 µg/mL	NCIM576	agar	0%
CCCCCOc1ccc(-c2cc(-c3ccc(C(=O)N[C@H]4C[C@@H](O)[C@@H](O)NC(=O)[C@@H]5[C@@H](O)[C@@H](C)CN5C(=O)[C@H]([C@H](O)CC(N)=O)NC(=O)[C@H]([C@H](O)[C@@H](O)c5ccc(O)c(OS(=O)(=O)O)c5)NC(=O)[C@@H]5C[C@@H](O)CN5C(=O)[C@H]([C@@H](C)O)NC4=O)cc3)no2)cc1	EC50		JEC21	broth dilution	>2 µg/mL
Cc1cc(-c2n[nH]c(C)c2N=O)no1	MFC				60 µM
CCCCCOc1ccc(-c2cc(-c3ccc(C(=O)N[C@H]4C[C@@H](O)[C@@H](O)NC(=O)[C@@H]5[C@@H](O)[C@@H](C)CN5C(=O)[C@H]([C@H](O)CC(N)=O)NC(=O)[C@H]([C@H](O)[C@@H](O)c5ccc(O)c(OS(=O)(=O)O)c5)NC(=O)[C@@H]5C[C@@H](O)CN5C(=O)[C@H]([C@@H](C)O)NC4=O)cc3)no2)cc1	MIC50			broth dilution	>32 µg/mL
CCC(C)n1ncn(-c2ccc(N3CCN(c4ccc(OC[C@H]5CO[C@](Cn6cncn6)(c6ccc(Cl)cc6Cl)O5)cc4)CC3)cc2)c1=O	Geometric mean MIC		9 strains		0.46 µg/mL
CCNC(CCC(C)C1CC[C@@]2(C)C3=C(CCC12C)C1(C)CC[C@H](OC(C)=O)C(C)(C)C1CC3)C(C)C	MIC90		A.34144		50 µg/mL
CCOC(=O)c1c(C)nc(NCCCNc2ccnc3cc(Cl)ccc23)nc1-c1ccccc1	MIC99		WP		5.7 µg/mL
CC(C)C(N)CCC(C)C1CCC2C3CC=C4C[C@@H](O)CCC4(C)C3CCC12C	MIC90		A.34144		≤0.05 µg/mL
CCCCc1oc2ccccc2c1C(=O)c1cc(I)c(OCCN(CC)CC)c(I)c1	inhibition	5 µM	JEC21		100%
C[C@H]1[C@H](O)[C@@H](C)/C=C/C=C/C=C/C=C/C=C/C=C/C=C/[C@H](O[C@@H]2O[C@H](C)[C@@H](O)[C@H](N)[C@@H]2O)C[C@@H]2O[C@](O)(C[C@@H](O)C[C@@H](O)CC[C@H](O)[C@@H](O)C[C@@H](O)CC(=O)O[C@H]1C)C[C@H](O)[C@H]2C(=O)O	Geometric mean MIC		9 strains		0.74 µg/mL
CC(C)C(CCC(C)C1CC[C@@]2(C)C3=C(CCC12C)C1(C)CC[C@H](O)C(C)(C)C1CC3)Sc1ccccc1	MIC90		A.34144		25 µg/mL
C[C@@H](N1CCN(Cc2cn(Cc3cccc(C(F)(F)F)c3)c3c(F)cccc23)CC1)[C@](O)(Cn1cncn1)c1ccc(F)cc1F	MIC80		ATCC 36556	resazurin	>128 µg/mL
OC(Cn1cncn1)(Cn1cncn1)c1ccc(F)cc1F	inhibition	1 µg/mL	Var. neoformans (isolate 45645)	colony count	90%
CC[C@@H]([C@H](C)O)n1ncn(-c2ccc(N3CCN(c4ccc(OC[C@@H]5CO[C@@](Cn6cncn6)(c6ccc(F)cc6F)C5)cc4)CC3)cc2)c1=O	MFC90		10 strains		0.5 µg/mL
CC(O)Cc1ccc(Cn2cc(CN3CCN([C@H](C)[C@](O)(Cn4cncn4)c4ccc(F)cc4F)CC3)c3ccccc32)cc1	MIC80		ATCC 36556	resazurin	>128 µg/mL
Cc1nc(NCCCCNc2ccnc3cc(Cl)ccc23)nc(-c2ccccc2)c1C(=O)OC(C)C	MIC99		F-10		4 µg/mL
NC(=O)c1cc[n+](CCCC[n+]2ccccc2/C=N/O)cc1.[Br-].[Br-]	EC50			broth dilution	>20 µg/mL
COC1CC2CCC(C)C(O)(O2)C(=O)C(=O)N2CCCCC2C(=O)OC(C(C)CC2CCC(O)C(OC)C2)CC(=O)C(C)/C=C(\C)C(O)C(OC)C(=O)C(C)C[C@](C)(N(O)C(=O)NN2CCCCC2)/C=C/C=C/C=C/1C	MFC		TOR1-1		>100 µg/mL
C[C@@H](n1cnc2cc(Cl)ccc2c1=O)[C@](O)(Cn1cncn1)c1ccc(F)cc1F	MFC		Isolate 124.96		20 µg/mL
CCOC(=O)c1c(C)nc(OCCCNc2ccnc3cc(Cl)ccc23)nc1-c1ccccc1	MIC99		F-10		4 µg/mL
CCn1nc(C)c(N)c1-c1cc(C)on1	MFC				>200 µM
C[C@H]1[C@H](O)[C@@H](C)/C=C/C=C/C=C/C=C/C=C/C=C/C=C/[C@H](O[C@@H]2O[C@H](C)[C@@H](O)[C@H](N)[C@@H]2O)C[C@@H]2O[C@](O)(C[C@@H](O)C[C@@H](O)CC[C@H](O)[C@@H](O)C[C@@H](O)CC(=O)O[C@H]1C)C[C@H](O)[C@H]2C(=O)O	zone	4 µg/mL		agar diffusion / agar	24 mm
CCC(C)CC(C)CCCCCCCCC(=O)N[C@H]1C[C@@H](O)[C@H](NCCN)NC(=O)[C@@H]2[C@@H](O)CCN2C(=O)[C@H]([C@H](O)CCN)NC(=O)[C@H]([C@H](O)[C@@H](O)c2ccc(O)cc2)NC(=O)[C@@H]2C[C@@H](O)CN2C(=O)[C@H]([C@@H](C)O)NC1=O	Geometric mean MIC		12 strains		32 µg/mL
C[C@@H](N1CCN(Cc2cn(Cc3ccc(Cl)cc3)c3ccccc23)CC1)[C@](O)(Cn1cncn1)c1ccc(F)cc1F	MIC80		ATCC 36556	resazurin	>128 µg/mL
CNC(=S)N/N=C(\N)c1ccccn1	MIC100		ATCC 24067D2		104 µM
O=C(/C=C/c1ccccc1Cl)OC1CCN(CC(O)(Cn2cncn2)c2ccc(F)cc2F)CC1	MIC80		BLS108	broth dilution	0.498 µM
C[C@@H](N1CCN(Cc2cn(Cc3ccc(Cl)cc3Cl)c3ccccc23)CC1)[C@](O)(Cn1cncn1)c1ccc(F)cc1F	MIC80		ATCC 36556	resazurin	>128 µg/mL
Cc1onc(-c2nn(C)c(C)c2[N+](=O)[O-])c1[N+](=O)[O-]	MFC				>200 µM
O=C1N[C@@H](Cc2c[nH]c3ccccc23)C(=O)N2CCC[C@@H]12	zone	2 µg/mL		agar diffusion / agar	32 mm
C[C@@H](n1ncn(-c2ccc(OCC(F)(F)C(F)F)cc2)c1=O)[C@](O)(Cn1cncn1)c1ccc(F)cc1F	MFC		DUMC 114.96		2 µg/mL
Oc1cccc(C=Nc2ccccc2O)c1	MIC99		F-10		8 µg/mL
C=C1CO[C@H]2[C@@H](C)OC(OC[C@@]34C[C@H]5[C@H](C)CC[C@@H]5[C@@]5(C=O)C[C@@H]3C=C(C(C)C)[C@@]45C(=O)O)C[C@@H]12	Mean MIC		137 strains (serotype A)		0.537 µg/mL
Clc1ccc(C(Cn2ccnc2)OCc2csc3c(Cl)cccc23)c(Cl)c1	Mean MIC		12 strains		0.5 µg/mL
C[C@H]1[C@H](O)[C@@H](C)/C=C/C=C/C=C/C=C/C=C/C=C/C=C/[C@H](O[C@@H]2O[C@H](C)[C@@H](O)[C@H](N)[C@@H]2O)C[C@@H]2O[C@](O)(C[C@@H](O)C[C@@H](O)CC[C@H](O)[C@@H](O)C[C@@H](O)CC(=O)O[C@H]1C)C[C@H](O)[C@H]2C(=O)O	MIC90				0.1 µg/mL
CCC(C)n1ncn(-c2ccc(N3CCN(c4ccc(OC[C@H]5CO[C@](Cn6cncn6)(c6ccc(Cl)cc6Cl)O5)cc4)CC3)cc2)c1=O	MIC50		37 strains		0.094 µg/mL
CCCC(C)(C)C(=O)OC1CCN(CC(O)(Cn2cncn2)c2ccc(F)cc2F)CC1	MIC80		BLS108	broth dilution	0.573 µM
O/N=C/c1ccc[n+](Cc2cc(C[n+]3cccc(/C=N/O)c3)on2)c1.[Br-].[Br-]	EC50			broth dilution	>20 µg/mL
C[C@@H](c1ncncc1F)[C@](O)(Cn1cncn1)c1ccc(F)cc1F	MIC		B 36535	broth dilution	0.031 µg/mL
Oc1ccc(O)c(C=Nc2ccccc2O)c1	MIC99		96806		11.3 µg/mL
C[C@@H](N1CCN(Cc2cn(Cc3ccc(F)cc3F)c3ccccc23)CC1)[C@](O)(Cn1cncn1)c1ccc(F)cc1F	MIC80		ATCC 36556	resazurin	>128 µg/mL
O=c1cc(CO)occ1O	MIC99		CN24		>12800 µM
CC(C)C(CCC(C)C1CCC2C3CC=C4C[C@@H](O)CCC4(C)C3CCC12C)NS(=O)(=O)O	MIC90		B42419		0.1 µg/mL
O/N=C/c1cccc[n+]1Cc1ccc(C[n+]2ccccc2/C=N/O)s1.[Cl-].[Cl-]	EC50			broth dilution	>20 µg/mL
O=C(/C=C/c1ccccc1[N+](=O)[O-])OC1CCN(CC(O)(Cn2cncn2)c2ccc(F)cc2F)CC1	MIC80		BLS108	broth dilution	0.122 µM
NC(=NC1CCCC1)c1ccc(-c2ccc(-c3ccc(C(N)=NC4CCCC4)cc3)o2)cc1	Geometric mean MIC		9 strains		0.91 µg/mL
Cc1cc(-c2nn(CCO)c(C)c2N=O)no1	MFC				22 µM
COC1CC2CCC(C)C(O)(O2)C(=O)C(=O)N2CCCCC2C(=O)OC(C(C)CC2CCC(O)C(OC)C2)CC(=O)C(C)/C=C(\C)C(O)[C@@](OC)(N(O)C(=O)OCC(C)C)C(=O)C(C)CC(C)/C=C/C=C/C=C/1C	MFC		FRR1		>100 µg/mL
Oc1ccccc1N=Cc1ccc(F)cc1	MIC99		WP		8 µg/mL

Repeating the first 5 entries:

CC(C)CC1NC(=O)CC(CCCCCCCCC(C)O)OC(=O)C(CC(C)C)NC(=O)C(CC(C)C)NC(=O)C(CC(C)C)NC(=O)C(C(C)C)NC(=O)C(CC(=O)O)NC(=O)C(CC(C)C)NC1=O ; endpoint: MFC ; strain or isolate: MTCC 4406 ; read by: visual reading ; result: 4 µg/mL
OC(CN1CCN(c2ccc(OCc3ccncc3)cc2)CC1)(Cn1cncn1)c1ccc(F)cc1F ; endpoint: MIC80 ; strain or isolate: 201309 ; result: 1 µg/mL
CCOC(=O)c1c(C)nc(NCCCCNc2ccnc3cc(Cl)ccc23)nc1-c1ccccc1 ; endpoint: MIC99 ; strain or isolate: 96806 ; result: 45.3 µg/mL
CC(C)(C)OC(=O)N1CCC(n2cc(-c3noc(=O)[nH]3)nn2)CC1 ; endpoint: inhibition ; dose: 200 µg/mL ; strain or isolate: NCIM576 ; read by: agar ; result: 0%
CCC(C)n1ncn(-c2ccc(N3CCN(c4ccc(OC[C@H]5CO[C@](Cn6cncn6)(c6ccc(Cl)cc6Cl)O5)cc4)CC3)cc2)c1=O ; endpoint: MIC50 ; read by: broth dilution ; result: 0.13 µg/mL

Neighbouring rows are from separate reports. ECn: concentration that inhibits the pathogen or its effect by n%. Inhibition is in % at the dose shown (toxicity tests: loss of growth or viability). Blank or dashed fields: not listed here. MIC50, MIC90 and the like: level of inhibition, or share of isolates inhibited.